How the values were obtained:
[1] = target: full length H3 HA trimer (influenza A virus, subtype H3 (strain not stated)); test: BLI
[2] = target: full length H7 HA trimer (influenza A virus, subtype H7 (strain not stated)); test: BLI

MEDI8852 Fab
Kd [1]: 1.2 nM | koff [1]: 0.00015 s⁻¹ | Kd [2]: 1.2 nM | koff [2]: 0.00013 s⁻¹
